One series relates to P4 CCR5-luc cells. The series can be described thus: Toxicity, luciferase assay in P4 CCR5-luc cells. The settings on record: comparison compounds.
A further series concerns NL43 wild type virus. Particulars: read-out: EC50 (P4) (WT), P4 CCR5-luc cells, comparison compounds.

Experimental findings from patent US20090099136A1 (PHARMASSET, INC., priority 2007, published 2009) are described below.

The term EC50 denotes the concentration needed to bring the measured effect to its halfway point.

For the substance “D-dioxolane-thymine 5′-(phenyl ethoxy-alanyl phosphate)”, in the series with P4 CCR5-luc cells, the “Toxicity (Luciferase, 6d)” value is recorded as above 100. Moreover, in the series with NL43 wild type virus, the EC50 is 870 nM.

For the substance “D-dioxolane-thymine 5′-(phenyl ethoxy-phenylalanyl phosphate)”, the “Toxicity (Luciferase, 6d)” value with P4 CCR5-luc cells was above 100. In addition, the 50% effective concentration (EC50) with NL43 wild type virus was above 100000 nM.
